Anti-infective test results gathered from many reports (values: NIAID ChemDB through PubChem).

All rows: whole-cell or culture tests; agent: HIV-1; method: luciferase; endpoint: EC50

ECn is the concentration giving n% inhibition of infection, replication or growth. Neighbouring rows are from separate reports. An empty or dashed field is not shown.

structure	cells	mutations	strain	result
O=C(C(=O)N1CCN(C(=O)c2c(S)cccc2Cl)CC1)c1c[nH]c2cccc(Cl)c12	HeLa + HELA CD4+/CCR5	-	-	<10 µM
CN(C(=O)[C@H](Cc1ccccc1)NC(=O)NS(=O)(=O)N[C@@H](Cc1ccccc1)C(=O)N(C)c1ccc2scnc2c1)c1ccc2scnc2c1	MT-2	-	NL4-3	0.08 µM
O=C(C(=O)N1CCN(C(=O)c2ccncc2)CC1)c1c[nH]c2cccc(F)c12	HeLa + HELA CD4+/CCR5	-	-	<10 µM
O=C1Nc2ccc(Cl)cc2[C@@](C#CC2CC2)(C(F)(F)F)O1	HEK293T	N348I	p8.9	7.69 nM
COc1ccc(N(C)C(=O)[C@H](Cc2ccccc2)NC(=O)CCCCC(=O)N[C@@H](Cc2ccccc2)C(=O)N(C)c2ccc(OC)cc2)cc1	MT-2	-	NL4-3	1.16 µM
CC(=O)Oc1ccc(C(=O)N2CCN(C(=O)C(=O)c3c[nH]c4cccc(Cl)c34)CC2)cc1	HeLa + HELA CD4+/CCR5	-	-	<10 µM
COc1ncc(OC)c2c(C(=O)C(=O)N3CCC(=C(Br)c4ccccc4)CC3)c[nH]c12	HeLa	-	-	<1 µM
COc1ccc(Cl)c2[nH]cc(C(=O)C(=O)N3CCN(C(=O)c4cccc(N)c4)C[C@H]3C)c12	HeLa + HELA CD4+/CCR5	-	-	<10 µM
Cc1cc(S(N)(=O)=O)ccc1NC(=O)COc1ccc(Cl)cc1C(=O)c1cc(F)cc(C(F)(F)F)c1	HELA MAGI	RT-K103N Y181C	IIIB	0.036 µM
O=C(C(=O)N1CCN(C(=O)c2cscn2)CC1)c1c[nH]c2cccc(Cl)c12	HeLa + HELA CD4+/CCR5	-	-	<10 µM
COc1ccc(N(CCF)C(=O)[C@H](Cc2cc(F)cc(F)c2)NC(=O)Cn2c(=O)n(CC(=O)N[C@@H](Cc3cc(F)cc(F)c3)C(=O)N(CCF)c3ccc(OC)cc3)c3ccccc32)cc1	MT-2	-	NL4-3	0.34 µM
COc1cnc(-n2cncn2)c2[nH]cc(C(=O)C(=O)N3CCC(=C(c4ccccc4)c4nnc(C)o4)CC3)c12	HeLa	-	-	<1 µM
COc1ccc(N(C)C(=O)[C@H](Cc2ccccc2)NC(=O)C2CCCCC2C(=O)N[C@@H](Cc2ccccc2)C(=O)N(C)c2ccc(OC)cc2)cc1	MT-2	-	NL4-3	0.34 µM
COc1cnc(-c2cnccn2)c2[nH]cc(C(=O)C(=O)N3CCC(=C(c4ccccc4)c4cccnc4)CC3)c12	HeLa	-	-	<1 µM
C=CCN(C(=O)[C@H](Cc1cc(F)cc(F)c1)NC(=O)c1nccnc1C(=O)N[C@@H](Cc1cc(F)cc(F)c1)C(=O)N(CC=C)c1ccc(OC)cc1)c1ccc(OC)cc1	MT-2	-	NL4-3	3.73 µM
O=C(C(=O)N1CCC(=Cc2ccccc2)CC1)c1c[nH]c2c(-c3ncon3)ccc(F)c12	HeLa	-	-	<1 µM
CCN(C(=O)[C@H](Cc1cc(F)cc(F)c1)NC(=O)NS(=O)(=O)N[C@@H](Cc1cc(F)cc(F)c1)C(=O)N(CC)c1ccc(OC(F)F)cc1)c1ccc(OC(F)F)cc1	MT-2	-	NL4-3	0.01 µM
COc1ncc(OC)c2c(C(=O)C(=O)N3CCC(=C(C)c4ccccc4)CC3)c[nH]c12	HeLa	-	-	<1 µM
COc1ccc(C(=O)N2CCN(C(=O)C(=O)c3c[nH]c4cccc(F)c34)CC2)c(S)c1	HeLa + HELA CD4+/CCR5	-	-	<10 µM

Repeating the first 2 entries:

O=C(C(=O)N1CCN(C(=O)c2c(S)cccc2Cl)CC1)c1c[nH]c2cccc(Cl)c12 ; cells: HeLa + HELA CD4+/CCR5 ; result: <10 µM
CN(C(=O)[C@H](Cc1ccccc1)NC(=O)NS(=O)(=O)N[C@@H](Cc1ccccc1)C(=O)N(C)c1ccc2scnc2c1)c1ccc2scnc2c1 ; cells: MT-2 ; strain: NL4-3 ; result: 0.08 µM